In paper PMC10886162, “Synthesis of Novel Artemisinin, Ciprofloxacin, and Norfloxacin Hybrids with Potent Antiplasmodial Activity” (Antibiotics, 2024):

Tested on: CQ-resistant P. falciparum FcB1 strain
Assay: In vitro growth inhibition of P. falciparum FcB1 ([3H]-hypoxanthine incorporation)
Format: cell-based, Plasmodium falciparum
Procedure: The chloroquine-resistant FcB1/Colombia and Dd2/Indochina strains of Plasmodium falciparum were obtained from the Protist Collection of the National Museum of Natural History, Paris, France (n° MNHN-CEU-2016-224-PfFCB1 and MNHN-CEU-2016-222-PfDD2). The parasites were maintained in vitro on human erythrocytes in RPMI 1640 medium supplemented by 8% (v/v) heat-inactivated human serum, at 37 °C, under an atmosphere of 5% CO2. The human red blood cells and serum were provided by the Établissement Français du Sang under the C-CPSL-UNT approval no. 13/EFS/126. The in vitro drug susceptibility assays were measured by [^3H]-hypoxanthine incorporation, as previously described. The drug stock solutions were prepared in DMSO. Briefly, the assays were performed in 96-well plates. The compounds were diluted in the culture medium (100 μL per well). The parasite cultures (100 μL, 2% parasitaemia, and 1% final hematocrit) were then added to each well and incubated for 24 h at 37 °C prior to the addition of 0.5 μCi of [^3H]- hypoxanthine (GE Healthcare, Paris, France, 1 to 5 Ci·mmol/mL) per well. After a further incubation of 24 h, the plates were frozen and thawed. The cell lysates were then collected onto fiberglass filters and counted in a liquid scintillation spectrometer. The growth inhibition for each drug concentration was determined through a comparison of the radioactivity incorporated in the treated culture with that in the control culture maintained on the same plate. The drugs were first evaluated for a range of fixed concentrations of 50, 5, 0.5, 0.05, and 0.005 μg/mL. […] The IC50 value was obtained from the drug concentration–response curve, and the results were expressed in μM or nM as the mean values ± standard deviations determined from several independent experiments. Artesunate (46) was used as an antimalarial drug control.

O=C(c1cn(C2CC2)c2cc(N3CCNCC3)c(F)cc2c1=O)N1CCN(c2ccnc3cc(Cl)ccc23)CC1 [Compound 42]
times more active than compound 38: 148 | times more potent than compound 39: 37

CCCCOC(=O)c1cn(C2CC2)c2cc(N3CCNCC3)c(F)cc2c1=O [Compound 39]
fold better activity than compound 38 (n-Bu ester vs ethyl ester trifluoroacetate salt): > 3.9

C[C@@H]1CCC2[C@@H](C)[C@@H](CC(=O)N3CCN(c4cc5c(cc4F)c(=O)c(C(=O)O)cn5C4CC4)CC3)O[C@@H]3O[C@@]4(C)CCC1[C@@]23OO4 (stereo partly drawn) [Compound 12, 1-cyclopropyl-6-fluoro-4-oxo-7-(4-(2-((3R,6R,9R,10R,12R,12aR)-3,6,9-trimethyldecahydro-12H-3,12-epoxy[1,2]dioxepino[4,3-i]isochromen-10-yl)acetyl)piperazin-1-yl)-1,4-dihydroquinoline-3-carboxylic acid]
times more potent than compound 13: around 200
